Taken from: PubChem BioAssay AID1259414 (Drosophila RNAi Screening Center, 2018)

Screen: 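Host factors increasing or decreasing Wolbachia levels in cultured fly cells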 (primary screen)
Cells: Drosophila JW18 cells infected with Wolbachia
Reagents: long dsRNA against Drosophila genes, 0.25 µg dsRNA per well of a 384-well plate
Duration: 5 days
Challenge: cells persistently infected with Wolbachia before knock-down; no added drug
Detection: 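Imaged fluorescence in situ signal for Wolbachia 23S rRNA per DAPI-counted host cell, given as a robust z-score within each plate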
Scale: Wolbachia per cell robust z: higher = more Wolbachia per host cell than the plate typical
Hit rule: 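Active if absolute robust z reaches 1.5 in two or more of three replicates, leaving out multi- or no-target dsRNAs, genes unexpressed in JW18 and A1 wells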
The screen tested about 24,000 reagents; this is a random part of those that have a named target and a result. In the full data, about 1,210 (5%) got an active call. 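Inactive calls also include excluded dsRNAs with several or no targets, genes unexpressed in JW18, and well A1, regardless of score.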 A number with no mark means an inactive call. The numbers tell different reagents against one gene apart. A plus sign joins genes that one reagent is predicted to hit.

no.	predicted target	reagent	Wolbachia per cell robust z, rep 1	Wolbachia per cell robust z, rep 2	Wolbachia per cell robust z, rep 3
1	CG13311	1	0.576	-0.0573	0.226
2	CG13311	2	-0.95	-1.98	-0.191
3	MrgBP	1	-1.97	-1.55	-2.72
4	MrgBP	2	-0.743	-0.0982	0.339
5	CG15153	1	-0.597	-1.74	-1.31
6	CG15153	2	1.1	0.0871	-1
7	CtIP	1	0.424	-0.29	0.872
8	CtIP	2	-1.1	-0.851	-1.21
9	CG7484	1	0.424	0.756	0.772
10	CG6409	1	0.81	0.497	0.482
11	CG6409	2	-1.17	-0.0153	-1.09
12	CG6409	3	0.406	1.29	-0.53
13	Orc6	1	1.08	0.831	0.746
14	Mbs	1	-3.14 (active)	0.837	-2.03
15	Mbs	2	0.132	-0.105	-1.21
16	Mbs	3	0.137	0.637	0.306
17	Mbs	4	-1.04	-1.06	-0.695
18	Mbs	5	0.721	1.31	0.436

Hits (from the list above):
predicted target	reagent	Wolbachia per cell robust z, rep 1	Wolbachia per cell robust z, rep 2	Wolbachia per cell robust z, rep 3
Mbs	1	-3.14 (active)	0.837	-2.03

The list goes on.
no.	predicted target	reagent	Wolbachia per cell robust z, rep 1	Wolbachia per cell robust z, rep 2	Wolbachia per cell robust z, rep 3
19	CG11353	1	-8.69	0.543	-0.66
20	Rab9D + Rab9E + Rab9Db	1	-3.2	0.386	1.61
21	Sem1	1	-0.685	-0.0389	0.112
22	Sem1	2	-0.0786	1.16	-0.0321
23	CG31729	1	0.557	0.757	1.14
24	CG31729	2	-0.728	1.03	0.276
25	CG31729	3	0.146	-0.128	-2.32
26	CG1578	1	-5.28	0.0767	-0.656
27	CG1578	2	-0.908	-0.283	-1.29
28	CG12224	1	0.945	-0.675	0.922
